Results of unrelated studies side by side (data: NIAID ChemDB).

All rows: whole-cell or culture tests; organism: Mycobacterium fortuitum; endpoint: MIC

Blank or dashed fields: not listed here. Conditions beyond the fields shown may differ between rows.

smiles	setting	method	strain	result
CN(C)C(=O)CC(CSc1ccccc1)Nc1c(C(=O)N/N=C/c2ccc(F)cc2)cnc2cc(F)ccc12	-	resazurin	ATCC 19542	5 µg/mL
CSc1nc(N)c2c(n1)NC(c1ccccc1)CC(c1ccc3c(c1)OCO3)=N2	clinical isolate	MTT / broth dilution / absorbance	MNT1073	>32 µg/mL
O=C(O)c1ccc(Nc2nnc(-c3ccncc3)s2)cc1O	-	broth dilution	ATCC 6841	>128 µg/mL
CO[C@@]1(NC(=O)C2SC(=C(C(N)=O)C(=O)[O-])S2)C(=O)N2C(C(=O)[O-])=C(CSc3nnnn3C)CS[C@@H]21	-	-	914-8	25 µg/mL
FC(F)(F)c1cc(-c2ccccc2)nc(N2N=C(/C=C/c3ccc(Cl)cc3)CC2c2ccc(Cl)cc2)n1	-	resazurin	-	>20.6 µM
CC1(C)CC[C@]2(C(=O)O)CC[C@]3(C)C(CC[C@@H]4[C@@]5(C)C[C@H](O)CC(C)(C)[C@@H]5CC[C@]43C)[C@@H]2C1	-	resazurin	-	100 µg/mL
CSc1ccccc1/C=N/NC(=O)c1cnc2cc(F)ccc2c1NC(CSc1ccccc1)CC(=O)N(C)C	-	resazurin	ATCC 19542	>100 µg/mL
C[C@@H](O)[C@H]1C(=O)N2C(C(=O)O)=C(SCCN=CN)C[C@H]12	-	-	4-May	3.12 µg/mL
C[C@@H]1CN(c2c(F)c(N)c3c(=O)c(C(=O)O)cn(C4CC4)c3c2F)C[C@H](C)N1	-	broth dilution / visual reading	ATCC 6841	0.3 µg/mL
Nc1nc(N)c2c(n1)NC(c1ccc3c(c1)OCO3)CC(c1ccc(F)cc1)=N2	clinical isolate	MTT / broth dilution / absorbance	MNT1073	>32 µg/mL
COc1ccc(/C=N/NC(=O)c2cnc3cc(F)ccc3c2NC(CSc2ccccc2)CC(=O)N(C)C)c(F)c1	-	resazurin	ATCC 19542	>100 µg/mL
O=C(Nc1ccc(C(=O)O)c(O)c1)NC1CCCCC1	-	broth dilution	ATCC 6841	64 µg/mL
COc1ccc(/C=N/NC(=O)c2cnc3cccc(C(F)(F)F)c3c2NC(CSc2ccccc2)CC(=O)N(C)C)cc1O	-	resazurin	ATCC 19542	10 µg/mL
Oc1ccc(CCN=C=S)cc1	-	visual reading	-	16 µg/mL
CSc1nc(N)c2c(n1)NC(c1ccc(Cl)cc1)CC(c1ccc3c(c1)OCO3)=N2	clinical isolate	MTT / broth dilution / absorbance	MNT1073	>32 µg/mL
Cc1ccnc(NS(=O)(=O)c2ccc(N3C(=O)CC(=O)N(c4ccc(C(=O)O)c(O)c4)C3=S)cc2)n1	-	broth dilution	ATCC 6841	64 µg/mL
C[C@@H]([C@H](NC(=O)[C@H](CC1CCCCC1)NC(=O)N[C@@H](Cc1c[nH]c2ccccc12)C(=O)NCC(C)(C)C)C(=O)NC[C@H]1C[C@@H](O)[C@H](n2ccc(=O)[nH]c2=O)O1)N(C)C(=O)CN	-	resazurin / fluorescence	rA17	1.408 µM
Clc1ccc2c(c1)nc1cc(Nc3ccccc3)c(=NC3CCCCC3)cc-1n2-c1ccccc1	-	-	9738	5 µg/mL
CN(C)C(=O)CC(CSc1ccccc1)Nc1c(C(=O)N/N=C/c2ccc(OC(F)(F)F)cc2)cnc2cccc(C(F)(F)F)c12	-	resazurin	ATCC 19542	5 µg/mL
CO[C@@]1(NC(=O)CCCC(N)C(=O)O)C(=O)N2C(C(=O)O)=C(COC(C)=O)CSC21	-	-	1045	>100 µg/mL
CN(C)C(=O)CC(CSc1ccccc1)Nc1c(C(=O)N/N=C/c2cc(F)ccc2O)cnc2cc(F)ccc12	-	resazurin	ATCC 19542	>100 µg/mL
C[C@@H]([C@H](NC(=O)[C@H](Cc1ccc2ccccc2c1)NC(=O)N[C@@H](Cc1c[nH]c2ccccc12)C(=O)NCC(C)(C)C)C(=O)NC[C@H]1C[C@@H](O)[C@H](n2ccc(=O)[nH]c2=O)O1)N(C)C(=O)CN	-	resazurin / fluorescence	PN	1.6 µM
CO[C@@]1(NC(=O)Cc2ccccc2)C(=O)N2C(C(=O)[O-])=C(CSc3nnc(C)s3)CSC21	-	-	914-8	12.5 µg/mL
O=C(O)c1ccc(-n2c(-c3ccncc3)n[nH]c2=S)cc1O	-	broth dilution	ATCC 6841	>128 µg/mL
CN(C)C(=O)CC(CSc1ccccc1)Nc1c(C(=O)N/N=C/c2ccc(Br)s2)cnc2cc(F)ccc12	-	resazurin	ATCC 19542	>100 µg/mL
CO[C@@]1(NC(=O)C(C(=O)O)c2ccc(O)cc2)C(=O)N2C(C(=O)O)=C(CSc3nnnn3C)CO[C@@H]21	-	-	1049	50 µg/mL
Cc1c(NC(=S)Nc2ccc(C(=O)O)c(O)c2)c(=O)n(-c2ccccc2)n1C	-	broth dilution	ATCC 6841	64 µg/mL

2 of the rows above, restated:

smiles,setting,method,strain,result
Cc1c(NC(=S)Nc2ccc(C(=O)O)c(O)c2)c(=O)n(-c2ccccc2)n1C,-,broth dilution,ATCC 6841,64 µg/mL
FC(F)(F)c1cc(-c2ccccc2)nc(N2N=C(/C=C/c3ccc(Cl)cc3)CC2c2ccc(Cl)cc2)n1,-,resazurin,-,>20.6 µM